Where “and” joins values, the source holds several entries; their conditions need not be identical. Equal values may be shown once.

The values that follow come from publication PMC9426601 (mBio, 2022).

The data set has as its system A(H1N1pdm09) 100% WT. Set-up: species or system ferrets (Mustela putorius furo). Particulars: in vivo.

In the case of `CCOC(=O)C1=C[C@@H](OC(CC)CC)[C@H](NC(C)=O)[C@@H](N)C1` [Oseltamivir, oseltamivir], the “Serum antibody hemagglutinin inhibition (HAI) response” value stood at 2560.
In the case of `O=C1c2c(O)c(=O)ccn2N([C@@H]2c3ccccc3SCc3c2ccc(F)c3F)[C@@H]2COCCN12` [Baloxavir, baloxavir acid] it was 1280 and 2560.
